# Like-named read-outs stand apart in the source and are kept apart here.
# Tested on: tomato, spinach and cantaloupe
# Settings: 1 day after treatment, stored at 10° C.
smiles,measurement,setting,value
"OO [H2O2, hydrogen peroxide]",Firmness,cantaloupe,6.51 +/− 0.48a kg
same,Firmness,"cantaloupe, listed as ionized/aerosolized hydrogen peroxide (H2O2)",no significant differences
same,Firmness,spinach,9.87 +/− 1.94a kg
same,Firmness,"spinach, listed as ionized/aerosolized hydrogen peroxide (H2O2)",no significant differences
same,Firmness,tomato,1.17 +/− 0.13a^ kg
same,Firmness,"tomato, listed as ionized/aerosolized hydrogen peroxide (H2O2)",no significant differences
